A mixed list of measured activities; the numbers were collected in NIAID ChemDB.

All rows: whole-cell or culture tests; species: Mycobacterium tuberculosis

ECn: concentration that inhibits the pathogen or its effect by n%. MIC bound: limit read from a one-dose screen. Percent inhibition refers to the dose given; in toxicity tests it is the harm to the cells. Neighbouring rows are from separate reports. An empty or dashed field is not shown.

compound	read by	dose	cells	endpoint	strain	result
O=c1cc(-c2cccc(-c3ccc4c(=O)cc(-c5ccccc5)oc4c3)c2)oc2ccccc12				EC50	H37Rv	>12.5 µg/mL
NNC(=O)c1ccncc1				MIC	PMH29:kasA	0.125 µg/mL
O=C1CCCCCCCCCCOCCCCO1	BACTEC	12.5 µg/mL		inhibition	H37Rv	5%
C[C@H]1COc2c(N3CCN(C)CC3)c(F)cc3c(=O)c(C(=O)O)cn1c23				MIC	Isolate 8	4 µg/mL
C[C@H](NCCNCC(c1ccccc1)c1ccccc1)C1CCCCC1				MIC		25 µM
CO[C@H]1/C=C/O[C@@]2(C)Oc3c(C)c(O)c4c(O)c(c(/C=N/N5CCN(C6CCCC6)CC5)c(O)c4c3C2=O)NC(=O)/C(C)=C\C=C\[C@H](C)[C@H](O)[C@@H](C)[C@@H](O)[C@@H](C)[C@H](O)[C@@H]1C				MIC	Isolate 900201 drug-susceptible	0.5 µg/mL
CO[C@H]1/C=C/O[C@@]2(C)Oc3c(C)c(O)c4c(=O)c(c5oc6cc(N7CCN(CC(C)C)CC7)cc(=O)c6nc5c4c3=C2O)NC(=O)/C(C)=C\C=C\[C@H](C)[C@H](O)[C@@H](C)[C@@H](O)[C@@H](C)[C@H](OC(C)=O)[C@@H]1C				MIC	3125 (rifampin-sensitive)	0.012 µg/mL
CCOc1ccc(C(=O)N/N=C/c2ccc3c(c2)OCO3)cc1				MIC		200 µg/mL
C[C@H](NCCNCCCCc1ccccc1)C1CCCCC1				MIC		50 µM
Cc1ccnc(Nc2nnc(Nc3cc(C)ccn3)c3ccccc23)c1	BACTEC			MIC	H37Rv	≥12.5 µg/mL
O=C(NNCc1ccccc1F)c1ccncc1				MBC	Rifampicin-resistant	0.39 µg/mL
N#C/C(=N\NC(=O)c1cccc(C(=O)N/N=C(\C#N)c2ccccc2Cl)n1)c1ccccc1Cl	BACTEC	12.5 µg/mL		inhibition	H37Rv	2%
CCCCCCCCCCCNCCNCCCCC				MIC		50 µM
CCOc1ccc(C(=O)N/N=C/c2ccc([N+](=O)[O-])cc2)cc1				MIC		100 µg/mL
CC(CNC[C@@H]1CC[C@H]2C[C@@H]1C2(C)C)N[C@H]1C[C@H]2C[C@@H]([C@@H]1C)C2(C)C				MIC		25 µM
C[C@@H]1CN(c2c(F)c(N)c3c(=O)c(C(=O)O)cn(C4CC4)c3c2F)C[C@H](C)N1				MIC	Isolate 5	0.5 µg/mL
Cc1c(C(=O)CC(=O)C(=O)Nc2ccc(Cl)c(Cl)c2)[n+](=O)c2ccccc2n1[O-]	BACTEC	12.5 µg/mL		inhibition	H37Rv	51%
C[C@@H]1[C@@H](NCCNC2CCCCCCC2)C[C@H]2C[C@@H]1C2(C)C				MIC		12.5 µM
NCC[C@H](O)C(=O)N[C@@H]1C[C@H](N)[C@@H](O[C@H]2O[C@H](CN)[C@@H](O)[C@H](O)[C@H]2O)[C@H](O)[C@H]1O[C@H]1O[C@H](CO)[C@@H](O)[C@H](N)[C@H]1O				MIC	8R	2.5 µg/mL
CCCc1[nH]n(-c2cccc([N+](=O)[O-])c2)c(=O)c1N=Nc1ccc(Cl)cc1	BACTEC	12.8 µg/mL		inhibition	H37Rv	25%
CN[C@@H]1[C@H](O[C@H]2[C@H](O[C@H]3[C@H](O)[C@@H](O)[C@H](N=C(N)N)[C@@H](O)[C@@H]3N=C(N)N)O[C@@H](C)[C@]2(O)C=O)O[C@@H](CO)[C@H](O)[C@H]1O				MIC	Isolate 3	4 µg/mL
CC(=O)Nc1cccc(/C=C/C(=O)c2ccccc2O)c1		12.5 µg/mL		inhibition	H37Rv	0%
CO[C@H]1/C=C/O[C@@]2(C)Oc3c(C)c(O)c4c(O)c(c(/C=N/N5CCN(C6CCCC6)CC5)c(O)c4c3C2=O)NC(=O)/C(C)=C\C=C\[C@H](C)[C@H](O)[C@@H](C)[C@@H](O)[C@@H](C)[C@H](OC(C)=O)[C@@H]1C				MIC	L191	0.1 µg/mL
CO[C@H]1/C=C/O[C@@]2(C)Oc3c(C)c(O)c4c(O)c(c5c(c4c3C2=O)NC2(CCN(CC(C)C)CC2)N=5)=NC(=O)/C(C)=C\C=C\[C@H](C)[C@H](O)[C@@H](C)[C@@H](O)[C@@H](C)[C@H](OC(C)=O)[C@@H]1C				MIC	13 (rifampicin-susceptible)	≤0.062 µg/mL
CO[C@H]1/C=C/O[C@@]2(C)Oc3c(C)c(O)c4c(O)c(c(/C=N/N5CCN(C)CC5)c(O)c4c3C2=O)NC(=O)/C(C)=C\C=C\[C@H](C)[C@H](O)[C@@H](C)[C@@H](O)[C@@H](C)[C@H](OC(C)=O)[C@@H]1C				MIC	PR819	≤0.02 µg/mL
Cc1ccc(N=Cc2cc(Cl)cc(Cl)c2OC(=O)c2ccccc2)cc1Cl	BACTEC			MIC bound	H37Rv	>12.5 µg/mL
NC[C@H]1O[C@H](O[C@H]2[C@H](O)[C@@H](O[C@H]3O[C@H](CO)[C@@H](O)[C@H](N)[C@H]3O)[C@H](N)C[C@@H]2N)[C@H](N)C[C@@H]1O				Mean MIC	H37Rv	7 µg/mL
c1ccc(C(CCNCCN2CCCCC2)c2ccccc2)cc1				MIC		50 µM
C[C@H]1COc2c(N3CCN(C)CC3)c(F)cc3c(=O)c(C(=O)O)cn1c23				MIC	Strain 460	0.5 µg/mL
NNC(=O)c1ccccc1O				MIC		>200 µg/mL
O=C(Nc1ccccc1-c1ccccc1)c1cnccn1	BACTEC	12.5 µg/mL		inhibition	H37Rv	36%
CC(=O)NNS(=O)(=O)c1ccc(C)cc1C				MIC		>200 µg/mL
CO[C@H]1/C=C/O[C@@]2(C)Oc3c(C)c(O)c4c(O)c(c(/C=N/N5CCN(C)CC5)c(O)c4c3C2=O)NC(=O)/C(C)=C\C=C\[C@H](C)[C@H](O)[C@@H](C)[C@@H](O)[C@@H](C)[C@H](OC(C)=O)[C@@H]1C				MIC	9120	≥2 µg/mL
C/C(=N\NC(=O)c1ccncc1)c1ccccc1F				MIC	Rifampicin-resistant	0.2 µg/mL
Nc1c(C(=O)O)c2nc3c(CO)cccc3oc-2cc1=O	BACTEC			MIC bound	H37Rv	>12.8 µg/mL
CC(NNC(=O)c1ccncc1)c1ccc(Cl)cc1Cl				MIC	H37Rv	3.13 µg/mL
CCCCCCCCCCCNCCNCc1cccc(F)c1				MIC		50 µM
NC[C@@H]1O[C@H](O[C@H]2[C@@H](O)[C@H](O[C@@H]3[C@@H](O)[C@H](N)C[C@H](N)[C@H]3O[C@H]3O[C@H](CO)[C@@H](O)[C@H](O)[C@H]3N)O[C@@H]2CO)[C@H](N)[C@@H](O)[C@@H]1O				Median MIC	H37Rv	3 µg/mL
NC(=O)N(CCO)/N=C/c1ccc([N+](=O)[O-])o1	resazurin	6.25 µg/mL		inhibition	H37Rv	-28%
CCCCC(CC)CN1CN(CC(CC)CCCC)CC(C)(NCCNCCc2ccc(F)cc2)C1				MIC		12.5 µM
NC(=O)c1cnccn1				MIC	DHMH4319 niacin-positive	>2048 µg/mL
CCN(CC)CCNc1ccc(C)c2sc3cccc(O)c3c(=O)c12	BACTEC	12.5 µg/mL		inhibition	H37Rv	100%
Nc1ncccc1/C=C/C(=O)c1cc2ccccc2cc1O		12.5 µg/mL		inhibition	H37Rv	0%
CC[C@H]1OC(=O)[C@H](C)[C@@H](O[C@H]2C[C@@](C)(OC)[C@@H](O)[C@H](C)O2)[C@H](C)[C@@H](O[C@@H]2O[C@H](C)C[C@H](N(C)C)[C@H]2O)[C@](C)(OC)C[C@@H](C)C(=O)[C@H](C)[C@@H](O)[C@]1(C)O				MIC	9120	>4 µg/mL
OCc1ccccc1Sc1ccccc1CNCCNCCCCc1ccccc1				MIC		25 µM
N[C@@H]1CONC1=O				Median MIC	H37Rv	25 µg/mL
O=C(/C=C/c1ccco1)c1ccc(Br)cc1O				EC50	H37Rv	>12.5 µg/mL
CO[C@H]1/C=C/O[C@@]2(C)Oc3c(C)c(O)c4c(=O)c(c5oc6cc(N7CCN(CC(C)C)CC7)cc(=O)c6nc5c4c3=C2O)NC(=O)/C(C)=C\C=C\[C@H](C)[C@H](O)[C@@H](C)[C@@H](O)[C@@H](C)[C@H](OC(C)=O)[C@@H]1C				MIC	TN808	16 µg/mL
c1ccc(CCCCNCCNCCC(c2ccccc2)c2ccccc2)cc1				MIC		12.5 µM
C/C(=N\NC(=O)c1ccncc1)c1ccc(F)cc1				MIC	H37Rv (isoniazid-resistant)	>32 µg/mL
O=C1c2ccncc2C(=O)c2c1[nH]c1ccccc21	resazurin			MIC	H37Rv	1.56 µg/mL
CCCCCCCCCCCNCCNC/C=C(\C)CCC=C(C)C				MIC		25 µM
O=C1CCC(N2C(=O)c3ccccc3C2=O)C(=O)N1	BACTEC	12.5 µg/mL		inhibition	H37Rv	7%
Cc1ccc2c(=O)n(-c3cccc([N+](=O)[O-])c3)c(=O)oc2c1				MIC	CNCTC MY331/88	8 µM
Cc1ccc(N2C(=O)C(C)SC2=S)cc1Cl	BACTEC	12.5 µg/mL		inhibition	H37Rv	-5%
COc1ccc2oc(=O)n(-c3cccc(Cl)c3)c(=O)c2c1				MIC	CNCTC MY331/88	62.5 µM
O=C(N/N=C/c1ccccc1F)c1ccncc1				MIC	H37Rv (rifampin-resistant)	1 µg/mL
NNC(=O)c1ccc(N)cc1O				MIC		10 µg/mL
Nc1nc2n(n1)C(=O)C(=O)N2	BACTEC	12.5 µg/mL		inhibition	H37Rv	-6%
CO[C@H]1/C=C/O[C@@]2(C)Oc3c(C)c(O)c4c(O)c(c5c(c4c3C2=O)NC2(CCN(CC(C)C)CC2)N=5)=NC(=O)/C(C)=C\C=C\[C@H](C)[C@H](O)[C@@H](C)[C@@H](O)[C@@H](C)[C@H](OC(C)=O)[C@@H]1C				MIC	3064 (rifampin-sensitive)	0.025 µg/mL
O=c1oc2ccc(F)cc2c(=O)n1-c1ccc(F)cc1				MIC	CNCTC MY331/88	31 µM
CC(NCCNCc1ccccc1)c1cccc2ccccc12				MIC		50 µM
CC(=O)O[C@H]1C[C@@]2(C)[C@@H](C[C@@H](O)[C@H]3[C@@]4(C)CC[C@@H](O)[C@@H](C)[C@@H]4CC[C@@]32C)/C1=C(\CCC=C(C)C)C(=O)O				Median MIC	H37Ra	4 µg/mL
CC(=O)NC[C@H]1CN(c2ccc(N3CCOCC3)c(F)c2)C(=O)O1				MIC	Strain 474	0.25 µg/mL
COc1ccccc1CCNCCNCCc1ccc(Cl)cc1Cl				MIC		50 µM
O=C(N/N=C/c1cccc(F)c1)c1ccncc1				MIC	H37Rv	0.05 µg/mL
CCOC(=O)c1[nH]c(C)c(/C=N/NC(N)=O)c1C	BACTEC			MIC bound	H37Rv	>12.5 µg/mL
CC(=O)NC[C@H]1CN(c2ccc(N3CCOCC3)c(F)c2)C(=O)O1				MIC	2R	0.5 µg/mL
CCCCC(CC)CN1CN(CC(CC)CCCC)CC(C)(NCCNC(C)Cc2ccc(Cl)cc2)C1				MIC		50 µM
Cc1cc(S(=O)(=O)Nc2nnc3ccccn23)c(S)cc1Cl	BACTEC			MIC bound	H37Rv	>12.5 µg/mL
CC(C)c1ccc2c(c1)CC[C@H]1[C@](C)(CNCCNCc3ccccc3Sc3ccccc3CO)CCC[C@]21C				MIC		50 µM
COc1c2c3c(ccnc3c3ccccc13)C(=O)N2C	BACTEC			MIC bound	H37Rv	≤12.5 µg/mL
COc1ccc2oc(=O)n(-c3cccc(F)c3)c(=O)c2c1				MIC	CNCTC MY331/88	62.5 µM
NNC(=O)NN1C(=O)c2cc(S(=O)(=O)[O-])cc3c(N)c(S(=O)(=O)[O-])cc(c23)C1=O	resazurin	6.25 µg/mL		inhibition	H37Rv	-7%
O=C1CC(c2ccccc2)Oc2ccc(F)cc21				EC50		>12.5 µg/mL
Cc1cccc(Cc2ccc(Cl)cc2)c1O	BACTEC		VERO	MIC	H37Rv	>6.25 µg/mL
Nc1ncccc1/C=C/C(=O)c1cc(Cl)ccc1O				EC50	H37Rv	>12.5 µg/mL